Results of unrelated studies side by side (data: NIAID ChemDB).

All rows: growth or infection tests; species: Hepatitis C virus; read by: replicon; endpoint: EC50

a–b is a range or a potency band. ECn is the concentration giving n% inhibition of infection, replication or growth. Blank or dashed fields: not listed here. Lines come from different laboratories, so protocols vary.

structure	cells	setting	strain or isolate	value
COC(=O)/C=C/c1ccc(NC(=O)C2(NC(=O)c3ccc4c(C5CCCCC5)c5n(c4c3)CCCc3ncccc3-5)CCCC2)cc1	Huh7	-	-	0.01–1 µM
Cc1ccc(-n2ncc3c(NC(=O)Nc4ccc(S(N)(=O)=O)cc4)ncnc32)c(C)c1	HUH 9B	-	-	<1 µM
CNC(=O)c1c(-c2ccc(F)cc2)oc2cc(N(C)S(C)(=O)=O)c(OC(C)c3nccs3)cc12	Huh7	-	-	<1 µM
COc1ccc(N=C2SC(c3ccc(NC(=O)[C@@H](C)NC(=O)OCc4ccccc4)cc3)C(=O)N2Cc2ccco2)cc1F	Huh7	-	-	0.1–1 µM
Cc1ccc(-n2ncc3c(NC(=O)Nc4ccc(C#N)cc4)ncnc32)c(C)c1	HUH 9B	-	-	1–10 µM
CNC(=O)c1c(-c2ccc(F)cc2)oc2cc(C(C)O)c(OC(C)C)cc12	Huh7	-	-	<1 µM
C[C@@H](NC(=O)OCc1ccccc1)C(=O)Nc1cccc(C2SC(=Nc3cccc(F)c3)N(Cc3ccco3)C2=O)c1	Huh7	-	-	1–5 µM
Nc1nc2c(s1)CCCn1c-2c(C2CCCCC2)c2ccc(C(=O)NC3(C(=O)Nc4ccc(/C=C/C(=O)O)cc4)CCCC3)cc21	Huh7	-	-	1–10 µM
O=C(Nc1ccc(C2SC(=Nc3ccc(N4CCOCC4)cc3)N(Cc3ccco3)C2=O)cc1)[C@H]1CCCN1C(=O)OCc1ccccc1	Huh7	-	-	<0.1 µM
O=c1ccn([C@@H]2O[C@H](/C=C/P(=O)(O)O)C[C@H]2O)c(=O)[nH]1	-	-	-	>100 µM
CCOc1nc(NCc2ccc(F)cc2)nc2ccc(-c3ccc(NC(=O)OCCN4CCCC4)cc3)nc12	-	-	-	<0.1 µM
CCCCOC(=O)[C@H](C)NP(=O)(/C=C/[C@H]1O[C@@H](n2cnc3c(N)ncnc32)[C@H](F)[C@@H]1O)N[C@@H](C)C(=O)OCCCC	-	-	-	10–100 µM
COc1ccc(N=C2SC(c3ccc(NC(=O)[C@H]4CCCN4C(=O)OCc4ccccc4)cc3)C(=O)N2Cc2ccco2)cc1F	Huh7	-	-	<0.1 µM
COc1nc(N)nc2c1ncn2[C@@H]1O[C@H](COP(=O)(N[C@@H](C)C(=O)OC(C)C)Oc2ccccc2)[C@@H](O)[C@@]1(C)F	-	7 d	2a	0.011 µM
COC1O[C@H](CO)[C@H](O)[C@H]1O	-	-	-	>100 µM
Cc1ccc(COc2ccccc2/C=N/NC(=O)Cc2ccccc2)cc1	Huh7	-	-	>50 µM
CNC(=O)c1c(-c2ccc(F)cc2)oc2cc(N(CC(C)C)S(C)(=O)=O)c(O)cc12	Huh7	-	-	<30 µM
COc1ccc(Cl)cc1Nc1ncnc2c1cnn2-c1ccc(Cl)cc1	HUH 9B	-	-	1–10 µM
O=C(O)/C=C/c1ccc(NCC2(NC(=O)c3ccc4c(C5CCCCC5)c5n(c4c3)CC(C(=O)N3CCC(N4CCCC4)CC3)Cc3ccccc3-5)CCCC2)cc1	Huh7	-	-	0.01–1 µM
CS(=O)(=O)Nc1cc(-c2ccc3nc(NCc4ccc(S(N)(=O)=O)cc4)nc(NCC(F)(F)F)c3n2)ccc1F	-	-	-	<0.1 µM
Cc1ccc(N=C2SC(c3ccc(NC(=O)[C@@H](C)NC(=O)OCc4ccccc4)cc3)C(=O)N2Cc2ccco2)c(Cl)c1	Huh7	-	-	1–5 µM
C=CC1CC1(NC(=O)[C@@H]1C[C@@H](OC(=O)Nc2ccccc2C(=O)O)CN1C(=O)[C@@H](NC(=O)OC(C)(C)C)C(C)(C)C)C(=O)NS(=O)(=O)C1CC1	Huh7	-	1b	>10 µM
Nc1nc2c(nnn2[C@@H]2O[C@H](/C=C/P(=O)(O)O)C[C@H]2O)c(=O)[nH]1	-	-	-	10–100 µM
O=C(Cc1ccccc1)N/N=C/c1ccccc1OS(=O)(=O)c1ccc(Cl)cc1Cl	Huh7	-	-	<5 µM
C=C[C@@H]1C[C@]1(NC(=O)[C@@H]1C[C@@H](Oc2cc(-c3ccccc3)nc3cc(OC)ccc23)CN1C(=O)[C@@H](NC(=O)OC(C)(C)C)C(C)(C)C)C(=O)NS(=O)(=O)c1cccc(Br)c1	Huh7	-	1b	<0.05 µM
COc1cccc(CC(=O)N/[N+](C)=C/c2ccccc2OS(=O)(=O)c2ccc(C(F)(F)F)cc2)c1	Huh7	-	-	>50 µM
CCOc1nc(NCc2ccc(F)cc2)nc2ccc(-c3ccc(NC(=O)C(C)(C)N)cc3)nc12	-	-	-	<0.1 µM
CN(C)C(=O)C1Cc2ccccc2-c2c(C3CCCCC3)c3ccc(C(=O)O)cc3n2C1	Huh7	-	-	0.01–1 µM
COc1cccc(CC(=O)N/N=C/c2c(Br)ccc(OC)c2OS(=O)(=O)c2ccc(C(F)(F)F)cc2)c1	Huh7	-	-	<5 µM
CC(C)N=C1SC(c2ccc(NC(=O)[C@@H](C)NC(=O)[C@H](C)c3ccccc3)cc2)C(=O)N1Cc1ccccn1	Huh7	-	-	0.1–1 µM
Cc1ccc(-n2ncc3c(NCCc4ccc(Cl)cc4)ncnc32)c(C)c1	HUH 9B	-	-	<1 µM
CNC(=O)c1c(-c2ccc(F)cc2)oc2cc(-c3c(C)noc3C)c(OCCN3CCC(C#N)CC3)cc12	Huh7	-	-	<1 µM
Cc1cnc(N2C(=O)C(c3ccc(NC(=O)[C@H]4CCCN4C(=O)Cc4ccccc4)cc3)SC2=Nc2ccc(N3CCOCC3)cc2)cn1	Huh7	-	-	<0.1 µM
CCCCOC(=O)[C@H](C)NP(=O)(/C=C/[C@@H]1C[C@@H](O)[C@H](n2nnc3c(N)nc(N)nc32)O1)N[C@@H](C)C(=O)OCCCC	-	-	-	10–100 µM
O=C(Cc1ccc(F)c(F)c1F)N/N=C/c1ccccc1OS(=O)(=O)c1ccc(C(F)(F)F)cc1	Huh7	-	-	<5 µM
CCOc1nc(N)nc2ccc(-c3ccc(-c4nnc(C)o4)cc3)nc12	Huh7	-	-	>1 µM
NC(=O)COc1ccc2c(c1)S(=O)(=O)N=C(c1c(O)c3cc(F)ccc3n(CCC3CC3)c1=O)N2	-	-	1a H77	0.013 µM
C=C[C@@H]1C[C@]1(NC(=O)[C@@H]1C[C@@H](Oc2cc(-c3ccccc3)nc3cc(OC)ccc23)CN1C(=O)[C@@H](NC(=O)OC(C)(C)C)C(C)(C)C)C(=O)NS(=O)(=O)c1ccccc1[N+](=O)[O-]	Huh7	-	1b	<0.5 µM
CONC(=O)c1ccc(-c2ccc3nc(N)nc(OC(C)C)c3n2)cc1	Huh7	-	-	<0.3 µM
C=C[C@@H]1C[C@]1(NC(=O)[C@@H]1C[C@@H](Oc2cc(-c3ccccc3)nc3cc(OC)ccc23)CN1C(=O)[C@@H](NC(=O)C1(O)CC1)C(C)(C)C)C(=O)NS(=O)(=O)C1CC1	Huh7	-	1b	<5 µM
CN=C1SC(c2ccc(NC(=O)[C@@H](C)NC(=O)C(c3ccccc3)c3ccccc3)cc2)C(=O)N1Cc1ccccn1	Huh7	-	-	<0.1 µM
O=C(CC1C[C@@H]2CC[C@H]1C2)N/N=C/c1ccccc1OS(=O)(=O)c1ccc(C(F)(F)F)cc1	Huh7	-	-	<5 µM
CCCCc1ccc(Nc2ncnc3c2cnn3-c2cccc(Cl)c2)cc1	HUH 9B	-	-	1–10 µM
C=C[C@@H]1C[C@]1(NC(=O)[C@@H]1C[C@@H](Oc2cc(-c3ccccc3)nc3cc(OC)ccc23)CN1C(=O)[C@@H](N)C(C)(C)C)C(=O)NS(=O)(=O)C1CC1	Huh7	-	1b	<5 µM
C=CC1CC1(NC(=O)[C@@H]1C[C@@H](OC(=O)Nc2nc(Cl)c(Cl)nc2C(=O)OC)CN1C(=O)[C@@H](NC(=O)OC(C)(C)C)C(C)(C)C)C(=O)NS(=O)(=O)C1CC1	Huh7	-	1b	>10 µM
CCOc1nc(NCc2ccc(S(N)(=O)=O)cc2)nc2ccc(-c3cccc(S(N)(=O)=O)c3)nc12	-	-	-	<0.1 µM
C=CC1CC1(NC(=O)[C@@H]1C[C@@H](OC(=O)Nc2ccccc2C(=O)OCC)CN1C(=O)[C@@H](NC(=O)OCC)C(C)(C)C)C(=O)NS(=O)(=O)C1CC1	Huh7	-	1b	0.1–1 µM
COc1ccc(Cl)cc1Nc1ncnc2c1cnn2-c1cccc(Cl)c1	HUH 9B	-	-	<1 µM
O=C(Cc1cc(F)c(F)cc1F)N/N=C/c1ccccc1OS(=O)(=O)c1ccc(C(F)(F)F)cc1	Huh7	-	-	<5 µM
CNC(=O)c1c(-c2ccc(F)cc2)oc2cc(C(C)NC)c(OC)cc12	Huh7	-	-	>30 µM
C=CC1CC1(NC(=O)[C@@H]1C[C@@H](OC(=O)Nc2ccccc2CC)CN1C(=O)[C@@H](NC(=O)OC(C)(C)C)C(C)(C)C)C(=O)NS(=O)(=O)C1CC1	Huh7	-	1b	1–10 µM
NS(=O)(=O)c1ccc(CNc2nc(NCC(F)(F)F)c3nc(-c4ccc(Cl)c(S(=O)(=O)NCCN5CCCC5)c4)ccc3n2)cc1	-	-	-	<0.1 µM
C=CCN(CC=C)C(=O)O[C@@H]1C[C@@H](C(=O)NC2(C(=O)NS(=O)(=O)C3CC3)CC2C=C)N(C(=O)[C@@H](NC(=O)OC(C)(C)C)C(C)(C)C)C1	Huh7	-	1b	1–10 µM
Cc1ccccc1-n1ncc2c(NCCc3c[nH]c4ccccc34)ncnc21	HUH 9B	-	-	1–10 µM
CNC(=O)c1c(-c2ccc(F)cc2)oc2cc(-c3cc(CO)on3)c(OC(C)C)cc12	Huh7	-	-	<1 µM
C[C@@H](NC(=O)OCc1ccccc1)C(=O)Nc1ccc(C2SC(=Nc3cccc(Cl)c3)N(Cc3ccco3)C2=O)cc1	Huh7	-	-	0.1–1 µM
CS(=O)(=O)CCNc1nc(NCc2ccc(S(N)(=O)=O)cc2)nc2ccc(-c3ccc(NC(=O)C4(O)CC4)cc3)nc12	-	-	-	0.1–0.25 µM
O=C(O)/C=C/c1ccc(NCC2(NC(=O)c3ccc4c(C5CCCCC5)c5n(c4c3)CC(C(=O)N3CCN(c4ccncc4)CC3)Cc3ccccc3-5)CCCC2)cc1	Huh7	-	-	0.01–1 µM
COc1cccc(CC(=O)N/N=C/c2cccnc2OS(=O)(=O)c2ccc(C)cc2)c1	Huh7	-	-	5–50 µM
CNC(=O)c1c(-c2ccc(F)cc2)oc2cc(S(=O)(=O)N3CCCC3)c(OC(C)C)cc12	Huh7	-	-	<10 µM
C=C[C@@H]1C[C@]1(NC(=O)[C@@H]1C[C@@H](Oc2cc(-c3ccccc3)nc3cc(OC)ccc23)CN1C(=O)[C@@H](NC(=O)OCCCC)C(C)(C)C)C(=O)NS(=O)(=O)C1CC1	Huh7	-	1b	<0.05 µM
CCOc1nc(NCc2ccc(F)c(Cl)c2)nc2ccc(-c3ccc(F)cc3)nc12	-	-	-	<0.1 µM
Cc1ccc(-n2ncc3c(NCCc4ccc(S(N)(=O)=O)cc4)ncnc32)c(C)c1	HUH 9B	-	-	1–10 µM
CN(Cc1ccc(C(=O)O)cc1)S(=O)(=O)NC(=O)c1ccc2c(C3CCCCC3)c3n(c2c1)CC(=O)Nc1ccccc1-3	Huh7	-	-	1–10 µM
CC[C@@H]1C[C@]1(NC(=O)[C@@H]1C[C@@H](Oc2cc(-c3ccccc3)nc3cc(OC)ccc23)CN1C(=O)[C@@H](NC(=O)CC1CC1)C(C)C)C(=O)NS(=O)(=O)C1CC1	Huh7	-	1b	<0.05 µM
CSc1ncccc1C(=O)N/N=C/c1ccccc1OS(=O)(=O)c1ccc(C(F)(F)F)cc1	Huh7	-	-	<5 µM

The first 8 rows once more:

{"structure": "COC(=O)/C=C/c1ccc(NC(=O)C2(NC(=O)c3ccc4c(C5CCCCC5)c5n(c4c3)CCCc3ncccc3-5)CCCC2)cc1", "cells": "Huh7", "value": "0.01–1 µM"}
{"structure": "Cc1ccc(-n2ncc3c(NC(=O)Nc4ccc(S(N)(=O)=O)cc4)ncnc32)c(C)c1", "cells": "HUH 9B", "value": "<1 µM"}
{"structure": "CNC(=O)c1c(-c2ccc(F)cc2)oc2cc(N(C)S(C)(=O)=O)c(OC(C)c3nccs3)cc12", "cells": "Huh7", "value": "<1 µM"}
{"structure": "COc1ccc(N=C2SC(c3ccc(NC(=O)[C@@H](C)NC(=O)OCc4ccccc4)cc3)C(=O)N2Cc2ccco2)cc1F", "cells": "Huh7", "value": "0.1–1 µM"}
{"structure": "Cc1ccc(-n2ncc3c(NC(=O)Nc4ccc(C#N)cc4)ncnc32)c(C)c1", "cells": "HUH 9B", "value": "1–10 µM"}
{"structure": "CNC(=O)c1c(-c2ccc(F)cc2)oc2cc(C(C)O)c(OC(C)C)cc12", "cells": "Huh7", "value": "<1 µM"}
{"structure": "C[C@@H](NC(=O)OCc1ccccc1)C(=O)Nc1cccc(C2SC(=Nc3cccc(F)c3)N(Cc3ccco3)C2=O)c1", "cells": "Huh7", "value": "1–5 µM"}
{"structure": "Nc1nc2c(s1)CCCn1c-2c(C2CCCCC2)c2ccc(C(=O)NC3(C(=O)Nc4ccc(/C=C/C(=O)O)cc4)CCCC3)cc21", "cells": "Huh7", "value": "1–10 µM"}